Data: patent publication US6270957A (Wisconsin Alumni Research Foundation, priority 1999, dated 2001)

Test: general procedure: solution-phase peptide synthesis; BOP-Cl for N-methyl amino acids; BOP for the 7+4 segment coupling; EDCI/HOBt; Py
Conditions: coupling step
In the case of “Acetonide-MeLeu(3-OH)-Abu-Sar-MeAla-Val-MeAla-Lys(2Cl-Cbz)-OBn”, the step yield is reported as 67% yield.
Work on “Boc-(D)MeSer(OBn)-MeLeu-Val-MeLeu-Lys(2 Cl-Cbz)-OBn” yielded a step yield of 71%.
With Boc-Phe-[HEA]-Pro-Ile-Phe-O-allyl the step yield was 80%.
Boc-MeLeu-Val-MeLcu-Lys(2Cl-Cbz)-OBn gave a step yield of 69%.
Substance “Boc-Abu-Sar-MeAla-Val-MeAla-Lys(2Cl-Cbz)-OBn” has a step yield of 72% yield.
“Fmoc-(D)Ala-MeLeu-MeLeu-MeVal-MeLeu(3-OH)-Abu-Sar-MeAla-Val-MeAla-Lys(2Cl- Cbz)-OBn” showed a step yield of 59% yield.

Same assay, conditions: late stage modification step
With acetylcyclosporin A the step yield was 65%.
“Boc-(D)MeSer-MeLeu-Val-MeLeu-Lys(2Cl-Cbz)-OBn” gave a step yield of 89% yield.
For “H-MeLeu(3-OH)-Abu-Sar-MeAla-Val-MeAla-Lys(2Cl-Cbz)-OBn”, the step yield was 84% yield.
With “H-MeLeu(3-OH)-Abu-(D)MeSer(OBn)-MeLeu-Val-MeLeu-Lys(2Cl-Cbz)-OBn” the step yield was 76% yield.
